Molecules are shown by their SMILES.

Test [1] has as its target mutant HIV reverse transcriptases (Human immunodeficiency virus type 1, UniProt P12497, Y775L, cells depend on it). As to the kind of experiment: Table 1 IC50 against mutant HIV reverse transcriptases. It is filed as biochemical. The following applies: read-out: IC50 Y188L; Y188L mutant RT. How it is done: (§1) Compounds of the invention were tested against the wild-type and four mutant HIV reverse transcriptases. The results are listed in Table 1 as EC50 (nM) and IC50 (nM). In the Table, A represents <50 nM, B is between 50 and 100 nM, and C is >100 nM. ND is not determined.

For test [2], the target named is mutant HIV reverse transcriptases (Human immunodeficiency virus type 1, UniProt P12497, Y768C, cells depend on it). The test is described as above. It is filed as biochemical. The following applies: read-out: IC50 Y181C; Y181C mutant RT. How it is done: as §1

One may read the IC50 as the concentration needed to halve the response being measured. With `CCc1ccc(-n2c(SCC(=O)Nc3ccc(C(=O)O)cc3C)nnc2C(F)F)c2ccccc12` [compound 3], the IC50 in test [1] and in test [2] was over 100 nM in each case.
Consider `NS(=O)(=O)c1ccc(NC(=O)CSc2nnc(Br)n2-c2ccc(F)c3ccccc23)c(Cl)c1` [compound 61], for which the figures for the IC50 in test [1] and in test [2] were over 100 nM and under 50 nM, respectively.
For `Cc1ccc(-n2c(SCC(=O)Nc3ccc(S(=O)(=O)NC(C(=O)O)C(C)C)cc3Cl)nnc2C(F)F)c2c1CCCC2` (stereo not drawn) [compound 60] the same measures were over 100 nM and over 100 nM.

The values are drawn from US8946273B2, “S-Triazolyl alpha-mercapto acetanilides as inhibitors of HIV reverse transcriptase” (priority 2011, dated 2015).
